## HIV-1 NL4-3 point mutations in Gag: replication capacity

Protein: Gag of HIV-1 NL4-3, numbered from its first residue. Gag is numbered as the whole polyprotein.
"Other frame" gives the effect on an overlapping gene as the source lists it; other overlaps (genes, RNA elements) are not shown.

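Random point mutant libraries of HIV-1 NL4-3, one for each of seven fragments, were passaged in CEM T lymphocytes. Sequencing gave the RC index: frequency after two rounds over frequency in the input plasmid.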

Values are the RC index; higher means better tolerated. The authors read about 0.1 or less as lethal, 0.1-0.2 as attenuated and 0.2 or more as tolerated.
Substitutions are written as wild-type residue, site number, new residue.
Input reads are the counts in the plasmid library.
Since each clone held several changes (about five per kb), neutral changes can read low.

For A174S (base G1309T, region CA, input reads 244) the result was 0.0509.
For A120V (base C1148T, region MA, input reads 395) the result was 0.0500.
For T70A (base A997G, region MA, input reads 215) the result was 0.0598.
For L270I (base T1597A, region CA, input reads 878) the result was 0.0750.
For Q69L (base A995T, region MA, input reads 306) the result was 0.0525.
For K26T (base A866C, region MA, input reads 35) the result was 0.174.
For A100P (base G1087C, region MA, input reads 64) the result was 0.0502.
For I60K (base T968A, region MA, input reads 462) the result was 0.0132.
For Q227P (base A1469C, region CA, input reads 181) the result was 0.0950.
For R361K (base G1871A, region CA, input reads 175) the result was 0.343.
For D295N (base G1672A, region CA, input reads 115) the result was 0.512.
For H216N (base C1435A, region CA, input reads 297) the result was 0.0434.
For S129R (base C1176A, region MA, input reads 103) the result was 0.0213.
For R444K (base G2120A, region p1 / p6*, other frame p6* silent, input reads 258) the result was 0.230.
For E73K (base G1006A, region MA, input reads 130) the result was 0.272.
For P279T (base C1624A, region CA, input reads 269) the result was 0.0979.
For S278N (base G1622A, region CA, input reads 569) the result was 0.0964.
For S111N (base G1121A, region MA, input reads 516) the result was 0.278.
For T371I (base C1901T, region p2, input reads 493) the result was 0.0933.
For K112M (base A1124T, region MA, input reads 803) the result was 0.0431.
For K95E (base A1072G, region MA, input reads 305) the result was 0.0632.
For S129C (base A1174T, region MA, input reads 305) the result was 0.0216.
For S129R (base C1176G, region MA, input reads 72) the result was 0.0305.
For V370I (base G1897A, region p2, input reads 281) the result was 0.194.
For T375A (base A1912G, region p2, input reads 169) the result was 0.0372.
For L334S (base T1790C, region CA, input reads 258) the result was 0.0528.
For A309V (base C1715T, region CA, input reads 364) the result was 0.106.
For P257T (base C1558A, region CA, input reads 441) the result was 0.114.
For R232S (base G1485T, region CA, input reads 96) the result was 0.246.
For K98E (base A1081G, region MA, input reads 367) the result was 0.0613.
For K442E (base A2113G, region p1 / p6*, other frame p6* Q2R, input reads 612) the result was 0.0796.
For S368N (base G1892A, region p2, input reads 365) the result was 0.237.
For V297A (base T1679C, region CA, input reads 215) the result was 0.0631.
For R305K (base G1703A, region CA, input reads 106) the result was 0.448.
For T427S (base C2069G, region NC p7, input reads 237) the result was 0.0358.
For L322S (base T1754C, region CA, input reads 241) the result was 0.0845.
For S278C (base A1621T, region CA, input reads 100) the result was 0.0878.
For C350R (base T1837C, region CA, input reads 194) the result was 0.0362.
For R58G (base A961G, region MA, input reads 269) the result was 0.354.
For L268P (base T1592C, region CA, input reads 276) the result was 0.159.
For L78S (base T1022C, region MA, input reads 305) the result was 0.0738.
For P279L (base C1625T, region CA, input reads 494) the result was 0.0666.
For K27I (base A869T, region MA, input reads 233) the result was 0.0609.
For M276T (base T1616C, region CA, input reads 269) the result was 0.0571.
For K110N (base A1119C, region MA, input reads 170) the result was 0.0189.
For I205L (base A1402C, region CA, input reads 88) the result was 0.0733.
For V35A (base T893C, region MA, input reads 143) the result was 0.198.
For T204P (base A1399C, region CA, input reads 69) the result was 0.0569.
For G25E (base G863A, region MA, input reads 154) the result was 0.776.
For Q145H (base G1224C, region CA, input reads 74) the result was 0.0297.
For A209P (base G1414C, region CA, input reads 164) the result was 0.236.
For T320P (base A1747C, region CA, input reads 46) the result was 0.0492.
For Y296C (base A1676G, region CA, input reads 133) the result was 0.0851.
For N382K (base T1935A, region NC p7, input reads 109) the result was 0.159.
For G352R (base G1843A, region CA, input reads 65) the result was 0.198.
For P222L (base C1454T, region CA, input reads 270) the result was 0.0637.
For S126R (base C1167G, region MA, input reads 32) the result was 0.0686.
For G10E (base G818A, region MA, input reads 416) the result was 0.0604.
For L78F (base A1023T, region MA, input reads 233) the result was 0.0276.
For W414R (base T2029A, region NC p7, input reads 214) the result was 0.0396.
For A197D (base C1379A, region CA, input reads 82) the result was 0.0866.

6 of these entries, quoted again:

* A174S (base G1309T, region CA, input reads 244) -> 0.0509
* K26T (base A866C, region MA, input reads 35) -> 0.174
* K27I (base A869T, region MA, input reads 233) -> 0.0609
* A197D (base C1379A, region CA, input reads 82) -> 0.0866
* T320P (base A1747C, region CA, input reads 46) -> 0.0492
* G25E (base G863A, region MA, input reads 154) -> 0.776

Base changes are numbered along pNL4-3.
The authors read an index above 1 as above wild type (1.9% of all changes in the genome).

From the data files of Al-Mawsawi et al. 2014, doi:10.1186/s12977-014-0124-6.